Assay results as given in patent US20060099220A1, “Antibodies against and methods for producing vaccines for respiratory syncytial virus” (MEDIMMUNE, INC., priority 2004, published 2006).
Marks after values point to notes of the source that are not given here. Where no end group is shown, it is not given here.

Test system: MEDI-524 Mab
Experiment: Isothermal titration calorimetry (ITC) of F peptides with MEDI-524 Mab
Format: binding
Details: 25 mM His; for ΔHbinding: Mab, at 18° C., pH 6.07
Procedure: To evaluate the binding properties of the wild-type peptide (SEQ ID NO.28) to Numax™/MEDI-524 by using the ITC technique. The MEDI-524 Mab was titrated with SEQ ID NO.28 in the basis buffer 25 mM His, pH 6 at 10° C. SEQ ID NO.28: (MW=2732.14, no W, Y, or C). A working solution of 55 μM was prepared by diluting 30 μL of a 5 mg/mL peptide solution with 970 μL of 25 mM His, pH 6 buffer to be used for the ITC titrations. A 1.15 μM (0.1706 mg/ml) working solution of MEDI-524 was used for the experiments (MW 148400, A280=1.47).
For this set of experiments, […] (1.16 μM-148.4 KDa) of MEDI-524 Mab and 0.088 mg/mL (1.88 μM-46.3 KDa) of MEDI-524 Fab, both in 25 mM His, pH 6.07 were used. On the other hand, 250 μL of 1 mg/mL of the different peptides dissolved in H2O, were provided by ABC. The peptides were then diluted into the appropriate volume of buffer to give a final concentration of 50 μM. The ITC experiments were run at 18° C. with the macromolecule (Mab or Fab) in the cell, by doing ˜26 injections of 10 μL of peptides, spaced 360 sec with constant stirring. The data fitting was accomplished by subtracting the average value of the few last injections as the buffer and unspecific heat of dilution contributions. […] A note apart is the fact that the observed binding capacity (N) increases with the length of the peptide, indicating possibly an extra conformational factor in the binding event. The entropic contribution: For the peptides SEQ ID NOs.24 and 26, the entropic factor seems to be similar; the extra amino acids at the end of the N-terminal seems not to affect greatly the binding parameters. On the other hand, the elongation at the C-terminal seems to decrease slightly the binding enthalpy, the binding constant, as well as the entropic factor. […] The binding constant seems to be smaller (weaker) for both 30-mer peptides respect to the 26-mer.

Substance | binding enthalpy (pH 6 at 10° C.) [kcal/M] | binding site detected (pH 6 at 10° C.) | stoichiometry (pH 6 at 10° C.) | ΔHbinding
NSELLSLINDMPITNDQKKLMSNN-NH2 (NSELLSLINDMPITNDQKKLMSNNNH; C-terminal amide; Derived from respiratory syncytial virus sequence) [SEQ ID NO.28] | 4.8 ± 0.1 | 1 | 4 | 
STYMLTNSELLSLIHDMPITNDQKKLMSNN-NH2 (C-terminus assumed) [SEQ ID NO: 26] |  |  |  | −12.6* Kcal/Mol
NSELLSLIHDMPITNDQKKLMSNNVQIVRQ-NH2 (C-terminus assumed) [SEQ ID NO: 25] |  |  |  | -10.0 kcal/mol
